A mixed list of measured activities; the numbers were collected in NIAID ChemDB.

Shared fields: enzyme or target tests; organism: HIV-1; target: Reverse transcriptase

a–b is a range or a potency band. Rows are shuffled and stem from different studies. Fold resistance: result on the changed form divided by that on wild type. Blank or dashed fields: not listed here. ICn is the concentration giving n% inhibition.

SMILES | strain | mutations | read by | endpoint | value
CC(C)(C)c1ccc(-n2nnnc2SCC(=O)Nc2ccc(C#CC3(O)CCC3)cc2Cl)c(Cl)c1 | WT | - | PicoGreen / fluorescence | IC50 | <1 µM
CCN1c2ncc(CCOc3ccc(C(=O)O)c4ccccc34)cc2C(=O)Nc2c(C)cc(F)nc21 | - | RT-V106A | nucleotide incorporation / radiometric | IC50 | 0.1–1 µM
CCN1c2ncc(CCOc3ccc(-c4c[n+]([O-])ccc4C)cc3C)cc2C(=O)N(C)c2cccnc21 | IIIB | - | nucleotide incorporation / radiometric | IC50 | <0.05 µM
CCc1cc(CCc2nc3ccccc3o2)c(=O)[nH]c1C | - | RT-Y188H | nucleotide incorporation | fold resistance | 19.8
CCN1c2ncc(CCOc3ccc4cc(CC(=O)O)ccc4c3)cc2C(=O)N(C)c2cccnc21 | - | RT-V106A | nucleotide incorporation / radiometric | IC50 | 0.1–1 µM
CC(C)(C#Cc1ccc(NC(=O)CSc2nnnn2-c2cc(C(C)(C)C)ccc2Cl)c(Cl)c1)NC(=O)CN=c1ccn(O)cc1 | - | RT-K103 Y181C | PicoGreen / fluorescence | IC50 | <1 µM
CCN1c2ncc(CCOc3ccc(-c4ccc(C(=O)O)cc4)cc3)cc2C(=O)N(C)c2ccc(Cl)nc21 | IIIB | - | nucleotide incorporation / radiometric | IC50 | <0.05 µM
FC(F)(F)c1cccc2c1CCN(c1nn3c(C4CC4)nnc3c3ccccc13)C2 | 98US_MSC5016 | - | RT activity / fluorescence | IC90 | 46.5 µM
CCN1c2ncc(CCOc3ccc(-n4nc(C(=O)O)cc4C)cc3C)cc2C(=O)N(C)c2cccnc21 | IIIB | - | nucleotide incorporation / radiometric | IC50 | <0.05 µM
Cc1cc(OCC(=O)O)ccc1-c1ccc(NC(=O)CSc2nnnn2-c2ccc(C(C)(C)C)cc2Cl)c(Cl)c1 | - | RT-K103 Y181C | PicoGreen / fluorescence | IC50 | <1 µM
CCN1c2ncc(CCOc3ccc(-c4nn[nH]n4)cc3C)cc2C(=O)N(C)c2cccnc21 | IIIB | RT-K103N Y181C | nucleotide incorporation / radiometric | fold resistance | >2
CNC(=O)OCC(C)(C)C#Cc1ccc(NC(=O)CSc2nnnn2-c2ccc(C(C)(C)C)cc2Cl)c(Cl)c1 | - | RT-K103 Y181C | PicoGreen / fluorescence | IC50 | <1 µM
N#Cc1ccc2c(c1)CN(c1nn3c(C4CC4)nnc3c3ccccc13)CC2 | IIIB | - | RT activity / fluorescence | IC90 | 3 µM
CC(C)(C#Cc1ccc(NC(=O)CSc2nnnn2-c2ccc(C(C)(C)C)cc2Cl)c(Cl)c1)OCC(=O)NCc1ccco1 | WT | - | PicoGreen / fluorescence | IC50 | <1 µM
NCCCCNc1nc(Cc2ccccc2)cc(=O)[nH]1 | - | RT-Y181L | - | Ki | >1000 µM
CC(C)(C#Cc1ccc(NC(=O)CSc2nnnn2-c2ccc(C3CC3)cc2Cl)c(Cl)c1)NC(=O)CN1CCCC1 | WT | - | PicoGreen / fluorescence | IC50 | <1 µM
O=c1cc(Cc2ccccc2)nc(NCCCCO)[nH]1 | - | RT-V179D | - | Ki | >1000 µM
CC(C)(C#Cc1ccc(NC(=O)CSc2nnnn2-c2ccc(C3CC3)cc2Cl)c(Cl)c1F)OCCOc1ccncc1 | WT | - | PicoGreen / fluorescence | IC50 | <1 µM
Cc1c(Cc2ccccc2)nc(NCCCCN)[nH]c1=O | - | RT-K103N | - | Ki | >1000 µM
CCN1c2ncc(CCOc3ccc(C(=O)O)c4c3CCCC4)cc2C(=O)N(C)c2ccc(OC)nc21 | - | RT-V106A | nucleotide incorporation / radiometric | IC50 | >1 µM
Cn1cc(NC(=O)c2ccc(NC(=O)CSc3nnnn3-c3ccc(C(C)(C)C)cc3Cl)c(Cl)c2)cc1C(=O)O | - | RT-K103 Y181C | PicoGreen / fluorescence | IC50 | <1 µM
COc1ccc2c(c1)CCN(c1nn3c(C)nnc3c3ccccc13)C2 | IIIB | - | RT activity / fluorescence | IC90 | 7.65 µM
CC(C)(C#Cc1ccc(NC(=O)CSc2nnnn2-c2cc(C(C)(C)C)ccc2Cl)c(Cl)c1)C(=O)O | - | RT-K103 Y181C | PicoGreen / fluorescence | IC50 | <1 µM
CCN1c2ncc(CCOc3ccc(C(C)CC(=O)O)c4ccccc34)cc2C(=O)N(C)c2cccnc21 | - | RT-Y188L | nucleotide incorporation / radiometric | fold resistance | >10
CCN1c2ncc(CCOc3ccc(C(=O)Nc4cccn(CC(=O)O)c4=O)cc3C)cc2C(=O)N(C)c2cccnc21 | IIIB | RT-K103N Y181C | nucleotide incorporation / radiometric | fold resistance | >1
CCN1c2ncc(CCOc3ccc(NC(=O)CC(C)(C)C(=O)O)c4ccccc34)cc2C(=O)N(C)c2cccnc21 | - | RT-Y188L | nucleotide incorporation / radiometric | fold resistance | >10
CCN1c2ncc(CCOc3ccc(-c4ccc(C(=O)O)c(Cl)c4)cc3C)cc2C(=O)N(C)c2cccnc21 | IIIB | RT-K103N Y181C | nucleotide incorporation / radiometric | fold resistance | >1
CC(C)(C#Cc1ccc(NC(=O)CSc2nnnn2-c2ccc(C3CC3)cc2Cl)c(Cl)c1)NC(=O)CN1CCN(CCn2cccc2)CC1 | WT | - | PicoGreen / fluorescence | IC50 | <1 µM
Cc1nnc2c3ccccc3c(N3CCc4cccnc4C3)nn12 | 98US_MSC5016 | - | RT activity / fluorescence | IC90 | 3.11 µM
CC(C)(C)c1ccc(-n2nnnc2SCC(=O)Nc2ccc(C#CCCCOC(N)=O)cc2Cl)c(Cl)c1 | WT | - | PicoGreen / fluorescence | IC50 | <1 µM
CCN1c2ncc(CCOc3ccc(-c4ccc(C)[n+]([O-])c4C)cc3C)cc2C(=O)N(C)c2cccnc21 | IIIB | RT-K103N Y181C | nucleotide incorporation / radiometric | IC50 | <0.05 µM
COc1cc2c(cc1OC)CN(c1nn3c(C)nnc3c3ccccc13)CC2 | 98US_MSC5016 | - | RT activity / fluorescence | IC90 | 0.86 µM
CCN1c2ncc(CCOc3ccc(C(=O)NC(C)(C)CC(=O)O)cc3C)cc2C(=O)N(C)c2cccnc21 | IIIB | RT-K103N Y181C | nucleotide incorporation / radiometric | fold resistance | >2
Cc1nnc2c3ccccc3c(N3CCc4ccccc4C3)nn12 | KER2008 | - | RT activity / fluorescence | IC90 | 0.91 µM

Again, the opening 2 rows:

SMILES	strain	mutations	read by	endpoint	value
CC(C)(C)c1ccc(-n2nnnc2SCC(=O)Nc2ccc(C#CC3(O)CCC3)cc2Cl)c(Cl)c1	WT	-	PicoGreen / fluorescence	IC50	<1 µM
CCN1c2ncc(CCOc3ccc(C(=O)O)c4ccccc34)cc2C(=O)Nc2c(C)cc(F)nc21	-	RT-V106A	nucleotide incorporation / radiometric	IC50	0.1–1 µM